A mixed list of measured activities; the numbers were collected in NIAID ChemDB.

All rows: host cell toxicity; cell line: HeLa; endpoint: CC50

An empty or dashed field is not shown. CCn: concentration that lowers growth or viability of the cells by n%. Two numbers with a dash give a range or band. Conditions beyond the fields shown may differ between rows.

structure	read by	value
Cc1ncnn1-c1cc(Cl)nc2c(C(=O)C(=O)N3CCN(C(=O)c4ccccc4)[C@H](C)C3)c[nH]c12	trypan blue	>100 µM
COc1cc(OC[C@H]2CC[C@@H](CO)O2)nc(N)n1		>250 µM
O=C(C(=O)N1CCN(C(=O)c2ccccc2)CC1)c1c[nH]c2c(-c3cnc[nH]3)ncc(F)c12	trypan blue	>100 µM
O=C1c2ccccc2C(=O)c2c1ccc1[nH]c(CNCCCCCCN3[C@@H](CO)[C@@H](O)[C@H](O)[C@@H]3CO)nc21	MTT	191.8 µM
NC(=O)CSc1ncnc2c1cnn2COCC(O)CO		>400 µg/mL
OC[C@@H]1CC[C@H](COc2ncnc3nc[nH]c23)O1		>250 µM
COc1cnc(-c2cncs2)c2[nH]cc(C(=O)C(=O)N3CCN(C(=O)c4ccccc4)CC3)c12	trypan blue	>100 µM
O=c1cc(NCCN2CCOCC2)c2cccnc2n1O		<100 µM
COc1cc2c(cc1OC)C1=C(c3ccc(OC)c(OS(=O)(=O)O)c3)C3c4cc(OC)c(OS(=O)(=O)O)cc4OC(=O)C3N1C=C2	MTT	29 µM
Nc1cc(OC[C@H]2CC[C@@H](CO)O2)nc(N)n1		>250 µM
CC(C)CS[C@@H]1C[C@H](n2cnc3c(N)ncnc32)[C@@H](O)[C@H]1O		80–400 µg/mL
CCc1cnc2c(c1)c(O)c(-c1ccccc1)c(=O)n2O		<100 µM
CC1=CC(=O)C=C(C/C=C(\C)CC/C=C(\C)CC/C=C(\C)CC[C@@H](C)C(C)(C)O)C1=O		29 µM
COc1ccc(C2SCC(=O)N2c2ccc(Cl)cc2O)c(OC)c1	absorbance	68.2 µg/mL
Nc1nc(N)nc(OC[C@H]2CC[C@@H](CO)O2)n1		>250 µM
CCOC(=O)/C=C/[C@H](CCC(N)=O)NC(=O)[C@H](Cc1ccccc1)NC(=O)[C@H](CC(C)C)NC(=O)OC(C)(C)C		>320 µM
NC(=O)CSc1ncnc2c1cnn2COCCO		>400 µg/mL
CCOC(=O)/C=C/[C@H](CCC(N)=O)NC(=O)[C@H](Cc1ccccc1)NC(=O)[C@@H](NC(=O)OCc1ccccc1)C(C)CC		178 µM
CCc1ccn(-c2ncc(OC)c3c(C(=O)C(=O)N4CCN(C(=O)c5ccccc5)[C@H](C)C4)c[nH]c23)n1	trypan blue	>100 µM
CCOC(=O)/C=C/[C@H](CCC(N)=O)NC(=O)[C@H](Cc1ccccc1)NC(=O)[C@H](CC(C)C)NC(=O)SCC		>100 µM
Nc1cc(OC[C@@H]2O[C@H](CO)[C@@H](O)[C@H]2O)nc(N)n1		>250 µM
COc1ccc(C2=C3c4cc(OC)c(OC)cc4C=CN3C3C(=O)Oc4cc(OS(=O)(=O)O)c(OC)cc4C23)cc1O	MTT	274 µM
COCCNC(=O)c1cc2c(s1)-c1ccccc1N(C(=O)c1ccc(NC(=O)c3ccccc3-c3ccccc3)cc1)CC2		>100 µM
CCOC(=O)Cc1c(O)c2cccnc2n(O)c1=O		<100 µM
Nc1cc(OCC2O[C@H](COCc3ccccc3)[C@@H](OCc3ccccc3)[C@H]2OCc2ccccc2)nc(N)n1		22 µM
O=C(NC1CC1)c1cc2c(s1)-c1ccccc1N(C(=O)c1ccc(NC(=O)c3ccccc3-c3ccccc3)cc1)CC2		82.3 µM
CCNc1cccc(-c2cccc(-c3cc(=O)n(O)c4ncccc34)c2)c1.O=S=O		<100 µM
CNC(=O)c1ncc(OC)c2c(C(=O)C(=O)N3CCN(C(=O)c4ccccc4)[C@H](C)C3)c[nH]c12	trypan blue	>100 µM
CN(C(=O)c1c(O)c2cccnc2n(O)c1=O)C1CCN(C(=O)OC(C)(C)C)CC1		<100 µM
O=C1c2ccccc2C(=O)c2c1ccc1[nH]c([C@H]3O[C@H](CO)[C@H](O)[C@H]3O)nc21	MTT	12.32 µM
COc1cnc(-n2cc(C)cn2)c2[nH]cc(C(=O)C(=O)N3CCN(C(=O)c4ccccc4)CC3)c12	trypan blue	>100 µM
O=C1c2ccccc2C(=O)c2c1ccc1[nH]c(CNCCN3[C@@H](CO)[C@@H](O)[C@H](O)[C@@H]3CO)nc21	MTT	44.23 µM
CCC(Sc1ncnc2c1cnn2COCC(O)CO)C(N)=O		>400 µg/mL
CCOC(=O)/C=C/[C@H](CCC(N)=O)NC(=O)[C@H](Cc1ccccc1)NC(=O)[C@H](CC(C)C)NC(=O)SC1CCCC1		>320 µM
CN(C)C(=O)c1cccc(-c2cc(=O)n(O)c3ncccc23)c1		<100 µM
O=C1c2ccccc2C(=O)c2c1ccc1[nH]c(CNCCCN3[C@@H](CO)[C@@H](O)[C@H](O)[C@@H]3CO)nc21	MTT	80.39 µM

Again, the opening 4 rows:

| structure | read by | value |
|---|---|---|
| Cc1ncnn1-c1cc(Cl)nc2c(C(=O)C(=O)N3CCN(C(=O)c4ccccc4)[C@H](C)C3)c[nH]c12 | trypan blue | >100 µM |
| COc1cc(OC[C@H]2CC[C@@H](CO)O2)nc(N)n1 |  | >250 µM |
| O=C(C(=O)N1CCN(C(=O)c2ccccc2)CC1)c1c[nH]c2c(-c3cnc[nH]3)ncc(F)c12 | trypan blue | >100 µM |
| O=C1c2ccccc2C(=O)c2c1ccc1[nH]c(CNCCCCCCN3[C@@H](CO)[C@@H](O)[C@H](O)[C@@H]3CO)nc21 | MTT | 191.8 µM |